Results of single-concentration screens

Measurements from “University of Dundee, Small-Polar-MMV Screening Library” (2021), ChEMBL document CHEMBL3988442.

The filed quantity is “Percent Effect” (%). How 0% and 100% were set is not recorded. Most values in the screen are low, and negative values occur. Many other results are left out here, so strong results are more common than in the screen. A dash means the value is not listed here; it may have been measured.

A: 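Phenotypic screen: M. tuberculosis growth, glucose 7H9 medium, 3 days; the read-out is not stated. Concentration: 500 µM. The record gives no direction; compounds that gave an IC50 in retests scored well above the rest, so higher reads as more growth inhibition. Of about 18,000 compounds tested this way, about 1,400 (7.9%) reached 50% or more in at least one test.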
B: 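Phenotypic screen: M. tuberculosis growth, cholesterol and DPPC medium, 4 days; the read-out is not stated. Concentration: 500 µM. The record gives no direction; compounds that gave an IC50 in retests scored well above the rest, so higher reads as more growth inhibition. Of about 18,000 compounds tested this way, about 900 (5%) reached 50% or more in at least one test.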

compound | A | B
CCOC(=O)c1cnc2c(C#N)c(C)nn2c1N | -11.6% | -
NCc1cc(Oc2cccc(Cl)c2)ccn1 | -20.05% | -23.07%
CC(=O)c1ccc(C(=O)N(C)CC2CCCOC2)cc1 (centres unmarked) | - | 3.8%
CC1(C)CN(C(=O)c2cccnc2)CC2(CCCC2)O1 | 7.262% | -
Cc1ccc(NC(=O)C2CC2)c(CN(C)C)c1 | 27.37% | -
Cc1cc(C(=O)NCc2ccnc(N(C)C)c2)no1 | 12.57% | 2.009%
OCC1CNc2c(F)cccc2C1 (centres unmarked) | - | 3.896%
O=C(c1c[nH]nc1-c1ccccc1)N1CCOCC1 | 5.773% | -
Cc1n[nH]c(NCc2ccsc2)n1 | 2.852% | -2.061%
NCC1(O)CCN(Cc2ccccc2)CC1 | - | -16.77%
OCC1CCCN(c2ncccn2)C1 (centres unmarked) | 12.63% | -
OCCNCC(O)c1ccc(Br)cc1 (centres unmarked) | 17.79% | 5.038%
COc1ccc(N2CCCNCC2)cc1 | 76.86% | 46.73%
Cc1ccc(F)cc1C(=O)NCCNC1CC1 | 34.79% | -
CNCCN1CCOC1=O | - | 5.656%
CC(C)Cc1cc(C(=O)NC[C@@H]2C[C@H](F)CN2)on1 | - | 16.64%
COc1cc(CC(=O)NCCNC(C)=O)ccc1C | 15.29% | -
c1cc(OC2CCNCC2)ccn1 | 8.35% | -
CC(C)(C)OC(=O)CCOCCO | 11.07% | -
CC1CCN(C(=O)CSc2nncs2)CC1 | - | 61.44%
O=C(CN1CCCC(O)C1)NCCCc1ncc[nH]1 (centres unmarked) | 0.7018% | -
CC(C(=O)Nc1cc(Cl)c(Cl)cn1)S(C)(=O)=O (centres unmarked) | -3.54% | -
Cc1cc(NC(=O)CSCC(=O)OC2CCOC2)no1 (centres unmarked) | 2.951% | -
Cc1cc(N2CCOCC2CCO)ncn1 (centres unmarked) | - | -3.029%
Cc1cc(C)c(C#N)c(N2C[C@H](C3CC3)[C@@H](N)C2)n1 | 79.47% | 60.85%
NCC(CO)Cc1ccc(F)c(Br)c1 (centres unmarked) | 71.79% | -
COCCC1CN(C(=O)c2ccccc2C#N)CCO1 (centres unmarked) | 18.28% | 7.402%
CC1CCCCN1C(=O)CN(C)CCO (centres unmarked) | -5.302% | -
O=C(Cc1cccc(O)c1)NCCCN1CCOCC1 | - | 10.26%
CC(=O)c1ccc(Cl)c(S(=O)(=O)NC(CN)C2CC2)c1 (centres unmarked) | 50.99% | -
CN1CCCN(C(=O)c2coc(Br)c2)CC1 | 15.71% | -
CCNC(=O)CN(CC)Cc1ccc(C#N)cc1 | 22.98% | -
CC(=O)N1CCNCC12CCCCC2 | 12.59% | -
CC(NS(=O)(=O)c1cccc(C#N)c1)c1ccncc1 (centres unmarked) | 31.56% | -
CN(C)c1ccc(C2NCCc3[nH]cnc32)cn1 (centres unmarked) | 14.1% | -
COc1ccccc1C(=O)NCC(=O)NCC(F)(F)F | - | -4.611%
c1ccc(OCCCNCc2ccco2)nc1 | 10.14% | 20.11%
CC(C)NC(=O)CNC(C)CC(=O)Nc1ccccc1 (centres unmarked) | -9.267% | -
COc1ccccc1CCNC(=O)NC[C@H](C)O | 15.95% | -
CC1CNC(=O)CCN1Cc1ccc(S(C)(=O)=O)cc1 (centres unmarked) | 12.6% | -
CCS(=O)(=O)N(C)c1ccc(F)cc1OC | - | 18.06%
N#Cc1ncn(CC(N)=O)n1 | 4.972% | -
O=S(=O)(CCc1ccccc1)NCCCO | 11.65% | -
COC(C(=O)NCCn1cncn1)c1ccccc1 (centres unmarked) | - | 3.954%
CS(=O)(=O)NCC1CCCN(Cc2cccnc2N)C1 (centres unmarked) | 8.474% | -
O=C1NCCNC1c1ccc(C(F)(F)F)cc1 (centres unmarked) | - | 13.64%
Cc1noc(C)c1CC(=O)N1CCN(C)CC1 | 8.395% | -
CSc1ncc(C(=O)N2CC[C@](C)(O)[C@H](C)C2)cn1 | -4.927% | -
c1ccc(N2CCCNCC2)nc1 | 9.475% | -
Cc1ccc(F)cc1NC(=O)NCC(=O)N1CCCC1 | -5.993% | -
CC(C)CC1C(=O)NCCN1C(=O)C1CCOCC1 (centres unmarked) | - | -16.34%
CC1COC2(CCN(C(=O)c3ccc(Cl)s3)CC2)O1 (centres unmarked) | 86.38% | 83.24%
Cc1cc(CNC(=O)CCC2CCCN(C)C2)n(C)n1 (centres unmarked) | 2.088% | -
CC(C)NS(=O)(=O)C1CCNC1 (centres unmarked) | - | -1.355%
CC(=O)N1CC(NC(=O)NCC2CCCC2)C1 | -9.223% | -
CCOC(=O)C1CCCN(C(=O)c2onc(C)c2Cl)C1 (centres unmarked) | 75.1% | 72.82%
CC(=O)c1sc(NCCc2ccccn2)nc1C | 56.06% | -
N[C@@H]1C[C@H]1c1ccc(F)cc1 | - | 16.8%

Some entries from above, unchanged:

compound	A	B
c1ccc(N2CCCNCC2)nc1	9.475%	-
Cc1ccc(F)cc1NC(=O)NCC(=O)N1CCCC1	-5.993%	-
COc1ccccc1C(=O)NCC(=O)NCC(F)(F)F	-	-4.611%
CS(=O)(=O)NCC1CCCN(Cc2cccnc2N)C1 (centres unmarked)	8.474%	-
CC(C)NC(=O)CNC(C)CC(=O)Nc1ccccc1 (centres unmarked)	-9.267%	-
Cc1cc(C)c(C#N)c(N2C[C@H](C3CC3)[C@@H](N)C2)n1	79.47%	60.85%